Pooled drug test results. Numbers come from NIAID ChemDB, via PubChem.

Common to all: toxicity to cultured cells; cell line: HepG2; read-out: CC50

Two numbers with a dash give a range or band. CCn: concentration that lowers growth or viability of the cells by n%. Rows are shuffled and stem from different studies.

{"smiles": "Cc1cc(NC(=O)c2c(C)c(C(=O)C(=O)Nc3ccccc3N3CCOCC3)n(C)c2C)ccc1F", "read by": "MTT", "value": "5–30 µM"}
{"smiles": "CCOC(=O)CCCCCOc1cccc(CN(C(=O)c2ccc(-c3ccco3)cc2)C(C)C)c1", "value": ">20 µM"}
{"smiles": "Cc1cc(NC(=O)c2c(C3CC3)c(C(=O)C(=O)NC3CCC(S(C)(=O)=O)CC3)n(C)c2C)ccc1F", "read by": "MTT", "value": ">30 µM"}
{"smiles": "CC(C)N(Cc1cccc(OCCCCCC(=O)OC(=O)O)c1)C(=O)c1ccc(-c2cccc(Oc3ccccc3)c2)cc1", "value": "<13.5 µM"}
{"smiles": "Cc1cc(NC(=O)c2c(C)c(C(=O)C(=O)NC3(C)CC(O)C3)n(C)c2C2CCCCC2)ccc1F", "read by": "MTT", "value": ">30 µM"}
{"smiles": "CNC(=O)c1cnc(-n2c(NC(C)C)nc3c(c2=O)C[C@@H](C)N(C(=O)c2ccc(Cl)c(C(F)(F)F)c2)C3)c(Cl)c1", "read by": "luminescence", "value": "44 µM"}
{"smiles": "CC(C)N(Cc1ccccc1)C(=O)c1ccc(-c2ccc3c(c2)OCO3)cc1", "value": ">20 µM"}
{"smiles": "CCNC(=O)C1(F)CCC(n2c(NC(C)C)nc3c(c2=O)C[C@@H](C)N(C(=O)c2ccc(Cl)c(C(F)(F)F)c2)C3)CC1", "read by": "luminescence", "value": ">50 µM"}
{"smiles": "COc1ccc(F)cc1CNCCCNc1ccnc2cc(-c3ccc(C(C)(C)C)cc3)ccc12", "read by": "fluorescence", "value": "0.62 µM"}
{"smiles": "Cc1c(C(=O)Nc2ccc(F)c(C#N)c2)c(C)n(C)c1C(=O)C(=O)NC(C)(C)C", "read by": "MTT", "value": ">30 µM"}
{"smiles": "COc1cccc(CNCCCNc2ccnc3cc(Cc4ccc(F)cc4)ccc23)c1O", "read by": "fluorescence", "value": "4.78 µM"}
{"smiles": "CC(C)N(Cc1cccc(OCCCCCC(=O)OC(=O)O)c1)C(=O)c1ccc(-c2ccco2)cc1", "value": ">20 µM"}
{"smiles": "CNC(=O)CCCCn1c(NC(C)C)nc2c(c1=O)C[C@@H](C)N(C(=O)c1ccc(Cl)c(C(F)(F)F)c1)C2", "read by": "luminescence", "value": ">50 µM"}
{"smiles": "COc1ccc(Oc2ccc3c(NCCCNCc4cc(F)ccc4OC)ccnc3c2)cc1", "read by": "fluorescence", "value": "7 µM"}
{"smiles": "Cc1cc(NC(=O)c2c(C)c(C(=O)C(=O)NC3CCC(S(C)(=O)=O)CC3)n(C)c2-c2nccs2)ccc1F", "read by": "MTT", "value": ">30 µM"}
{"smiles": "COc1ccc(C(O)C(Br)N=[N+]=[N-])cc1OC", "value": ">20 µM"}
{"smiles": "Cc1c(C(=O)Nc2cc(Cl)nc(Cl)c2)c(C)n(C)c1C(=O)C(=O)NC1CCC(O)CC1", "read by": "MTT", "value": ">30 µM"}
{"smiles": "CNC(=O)C1CCC(n2c(NC(C)C)nc3c(c2=O)C[C@@H](C)N(C(=O)c2cc(F)c(Cl)c(C(F)(F)F)c2)C3)CC1", "read by": "luminescence", "value": ">50 µM"}
{"smiles": "Cc1cc(NC(=O)c2c(C)c(C(=O)C(=O)NC3(C)CC(O)C3)n(C)c2-c2ccsc2)ccc1F", "read by": "MTT", "value": "5–30 µM"}
{"smiles": "CCOC(=O)CCCCCOc1cccc(CN(C(=O)c2ccc(Br)cc2)C(C)C)c1", "value": ">20 µM"}
{"smiles": "COc1cccc(CNCCCNc2ccnc3cc(CCc4ccccc4)ccc23)c1O", "read by": "fluorescence", "value": "6.8 µM"}
{"smiles": "CC(C)N(Cc1cccc(OCCCCCC(=O)OC(=O)O)c1)C(=O)c1ccc(-c2cccc(Cl)c2)cc1", "value": ">20 µM"}
{"smiles": "Cc1csc(C2(NC(=O)c3c(C)c(C(=O)C(=O)NC(C)(C)C)n(C)c3C)CCCC2)n1", "read by": "MTT", "value": ">30 µM"}
{"smiles": "CCOC(=O)CCCCCOc1cccc(CN(C(=O)c2ccc(-c3cc(C(F)(F)F)cc(C(F)(F)F)c3)cc2)C(C)C)c1", "value": ">20 µM"}
{"smiles": "COc1ccc(F)cc1CNCCCNc1ccnc2cc(-c3cccc4ccccc34)ccc12", "read by": "fluorescence", "value": "16 µM"}

For reference, 2 entries again:

smiles,read by,value
COc1ccc(F)cc1CNCCCNc1ccnc2cc(-c3cccc4ccccc34)ccc12,fluorescence,16 µM
Cc1c(C(=O)Nc2ccc(F)c(C#N)c2)c(C)n(C)c1C(=O)C(=O)NC(C)(C)C,MTT,>30 µM